# Share of PSTVd stem 3 variants by leaf site

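Three N. benthamiana plants were inoculated with the whole mutant pool. Samples came from the inoculated region at 5 days, the leaf margin at 10 and upper systemic leaves at 12.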

The pool varies stem 3 of the PSTVd intermediate strain in the pattern GUGGUUCCGNANNCNN; wild type is GUGGUUCCGGAACCGC (upper and lower strand joined, each 5' to 3', the first 8 letters being the upper strand).

Numbers give reads per thousand; 0 = not seen among the reads, higher = more abundant.
Each site shows the three plants.
"Pool" is the share in the plasmid pool used as inoculum, on the same scale.
The inoculated region was read from the minus strand, the other sites from the plus strand.
IR is the inoculated region, LM the leaf margin, Sys the systemic leaves.
Wild type was 17.3 per thousand in the pool and the most common sequence in every sample (inoculated region 330, 345, 235; leaf margin 794, 766, 816; systemic leaves 830, 792, 869).
With 27,691-54,225 reads a sample, very low values are single reads.
Sequences that differ at fixed positions probably stem from PCR or sequencing errors, and defective variants can be carried along by functional ones.

{"sequence": "GUGGUUCCGUAUCCUG", "pool": "0.600", "IR": "0.320 0.259 0.270", "LM": "0.0283 0 0.0361", "Sys": "0 0 0"}
{"sequence": "GUGGUUCCGUAUCCUU", "pool": "0.893", "IR": "0.347 0.474 0.351", "LM": "0 0.0636 0.0361", "Sys": "0.0932 0 0.0243"}
{"sequence": "GUGGUUCCGUAUGCAA", "pool": "1.22", "IR": "0.400 0.194 0.135", "LM": "0 0 0", "Sys": "0 0 0"}
{"sequence": "GUGGUUCCGUAUGCAC", "pool": "0.877", "IR": "0.320 0.431 0.270", "LM": "0 0.0318 0.0361", "Sys": "0 0 0"}
{"sequence": "GUGGUUCCGUAUGCAG", "pool": "1.51", "IR": "1.09 0.949 0.757", "LM": "0 0 0", "Sys": "0.0186 0 0"}
{"sequence": "GUGGUUCCGUAUGCAU", "pool": "0.923", "IR": "0.613 0.690 0.892", "LM": "0 0 0", "Sys": "0.149 0 0.0243"}
{"sequence": "GUGGUUCCGUAUGCCA", "pool": "0.877", "IR": "0.320 0.496 0.324", "LM": "0 0 0", "Sys": "0 0 0"}
{"sequence": "GUGGUUCCGUAUGCCC", "pool": "0.693", "IR": "0.426 0.280 0.324", "LM": "0 0.0318 0.0361", "Sys": "0 0 0"}
{"sequence": "GUGGUUCCGUAUGCCG", "pool": "0.816", "IR": "0.426 0.259 0.243", "LM": "0.0567 0 0", "Sys": "0 0 0"}
{"sequence": "GUGGUUCCGUAUGCCU", "pool": "1.03", "IR": "0.267 0.474 0.270", "LM": "0.0283 0 0.0361", "Sys": "0 0 0"}
{"sequence": "GUGGUUCCGUAUGCGA", "pool": "0.723", "IR": "0.293 0.216 0.162", "LM": "0 0.0318 0", "Sys": "0 0 0"}
{"sequence": "GUGGUUCCGUAUGCGC", "pool": "1.35", "IR": "0.560 0.668 0.730", "LM": "0 0.0636 0", "Sys": "0.0746 0 0"}
{"sequence": "GUGGUUCCGUAUGCGG", "pool": "0.693", "IR": "0.267 0.194 0.108", "LM": "0.0283 0 0", "Sys": "0 0 0"}
{"sequence": "GUGGUUCCGUAUGCGU", "pool": "1.66", "IR": "0.453 0.539 0.540", "LM": "0.878 0.0318 0", "Sys": "0.0932 0 0"}
{"sequence": "GUGGUUCCGUAUGCUA", "pool": "0.800", "IR": "0.347 0.259 0.216", "LM": "0 0.0636 0.0361", "Sys": "0 0 0"}
{"sequence": "GUGGUUCCGUAUGCUC", "pool": "1.66", "IR": "0.506 0.539 0.622", "LM": "0 0.0636 0.0722", "Sys": "0.0932 0 0"}
{"sequence": "GUGGUUCCGUAUGCUG", "pool": "1.43", "IR": "0.533 0.582 0.540", "LM": "0.0283 0.0318 0", "Sys": "0.168 0.0184 0"}
{"sequence": "GUGGUUCCGUAUGCUU", "pool": "1.57", "IR": "0.773 0.949 0.703", "LM": "0.0283 0 0.289", "Sys": "0.0559 0 0"}
{"sequence": "GUGGUUCCGUAUUCAA", "pool": "0.693", "IR": "1.23 0.733 0.946", "LM": "0 0 0.469", "Sys": "0 0 0"}
{"sequence": "GUGGUUCCGUAUUCAC", "pool": "1.77", "IR": "1.49 1.06 1.89", "LM": "0.0567 0 0.0361", "Sys": "0.149 0.148 0.0486"}
{"sequence": "GUGGUUCCGUAUUCAG", "pool": "0.816", "IR": "0.933 0.927 0.757", "LM": "0.0283 0.0954 0.325", "Sys": "0.0746 0 0"}
{"sequence": "GUGGUUCCGUAUUCAU", "pool": "1.72", "IR": "1.12 1.10 1.41", "LM": "1.50 1.65 0.289", "Sys": "1.16 1.31 0.608"}
{"sequence": "GUGGUUCCGUAUUCCA", "pool": "1.00", "IR": "0.720 0.733 1.24", "LM": "0.425 0.0636 0.289", "Sys": "0 0 0"}
{"sequence": "GUGGUUCCGUAUUCCC", "pool": "0.908", "IR": "0.373 0.280 0.216", "LM": "0 0 0", "Sys": "0 0 0"}
{"sequence": "GUGGUUCCGUAUUCCG", "pool": "0.800", "IR": "0.347 0.259 0.405", "LM": "0 0.0318 0", "Sys": "0 0 0"}
{"sequence": "GUGGUUCCGUAUUCCU", "pool": "0.877", "IR": "0.853 0.625 0.946", "LM": "0 0 0", "Sys": "0 0.0553 0"}
{"sequence": "GUGGUUCCGUAUUCGA", "pool": "1.48", "IR": "0.720 0.518 0.622", "LM": "0.340 0 0.0361", "Sys": "0.186 0 0"}
{"sequence": "GUGGUUCCGUAUUCGC", "pool": "1.06", "IR": "0.320 0.237 0.243", "LM": "0 0.0318 0", "Sys": "0 0 0.0243"}
{"sequence": "GUGGUUCCGUAUUCGG", "pool": "1.05", "IR": "0.426 0.280 0.243", "LM": "0 0 0.0722", "Sys": "0 0 0"}

Data from the supplement of Wu et al. 2024, doi:10.1371/journal.ppat.1012142.